Measured values as given in article PMC3879392.

Tested on: Nc1ncnc2c1ncn2[C@@H]1O[C@H](COP(=O)(O)OP(=O)(O)OP(=O)(O)O)[C@@H](O)[C@H]1O
Assay: purified protein
Details: 25 mM MES-Tris pH 6.5, 4 mM MgSO4, 10% glycerol, 25 C

Substance: E. hirae V1-ATPase (A3B3DF complex) (Enterococcus hirae ATCC 9790; Q08636:L476A/Q08637:L389A)
- Km: 270 µM

Substance: E. hirae V1-ATPase (A3B3DF complex) (Enterococcus hirae ATCC 9790; Q08636:L476A/Q08636:V477A)
- Km (A3B3 reconstituted with AMP-PNP): 450 µM
